The target in this series is GST-LuxR (Vibrio harveyi) (UniProt P21308). Put plainly: fluorescence anisotropy. The following applies: 30°C, annealing in NaCl-Tris-EDTA buffer, ex 480 nm, em 535 nm, recombinant protein, label: 5'-fluorescein on strand 1.

Protein sequences, listed by entry. Tags and fused reporters are not part of them. Lines headed by an entry give the natural chain unless they say otherwise; changes in a name come on top.
UniProt P21308: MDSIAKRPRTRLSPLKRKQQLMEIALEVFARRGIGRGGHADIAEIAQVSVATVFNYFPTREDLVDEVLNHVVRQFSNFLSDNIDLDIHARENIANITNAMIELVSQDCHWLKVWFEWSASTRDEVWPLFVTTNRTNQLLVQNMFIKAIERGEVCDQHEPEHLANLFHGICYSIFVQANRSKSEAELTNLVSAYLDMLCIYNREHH

The exact form of at least one protein or probe is not confirmed. The comparison behind a weaker result is the experiment's own reference, which may not be listed here.

“TATTGATAAATTTATCAATAA (double strand) [V. harveyi consensus LuxR binding sequence]”: the binding result (10 µM thiophenone TF101, Kd value only in Figure 4B) was “binds more weakly” and the binding result (10 µM thiophenone TF310, Kd value only in Figure 4B) is reported as “binds more weakly”.

(Values after publication PMC3404956, “A Quorum Sensing-Disrupting Brominated Thiophenone with a Promising Therapeutic Potential to Treat Luminescent Vibriosis”.)
